Common to all, as to test: protein ELISA
In general terms: An ELISA detects its analyte on a solid surface through an enzyme-linked reagent.

Assay [1] has as its target T1, SARS-CoV-2 SD1-RBD Omicron BA.4/BA.5 (SARS-CoV-2 Omicron BA.4/BA.5).
T1 construct: domain: SD1-RBD

Assay [2] deals with T2, SARS-CoV-2 SD1-RBD Omicron BA.2.75 (SARS-CoV-2 Omicron BA.2.75).
T2 construct: domain: SD1-RBD

The target in assay [3] is T3, SARS-CoV-2 SD1-RBD Omicron BA.1 (SARS-CoV-2 Omicron BA.1).
T3 construct: domain: SD1-RBD

Data on 19 molecules can be found in patent US20250382354A1 (INSTITUTE FOR RESEARCH IN BIOMEDICINE IRB, published 2025).

What is called EC50 is the concentration giving half of the maximal effect.

B1: rbd.035 (antibody, V domains shown)
VH: EVQLLESGGGLIEPGGSLRLSCAASGFPFNTFAMTWVRQPPGKGLEWVATISSRGDYTFYADFVKGRFSISRDNANNALWLDMSGLRAEDTALYYCAKGESGYDLYLYGLDLWGQGTTVTVSS
VL: DIQMTQSPSSLSASVGDGVTITCRASQNINNYLSWYQKKAGKAPKLLIYGASTLHSGVPSRFSGSGSGTDFTLTISSLQPEDFASYYCQQNSPTPPWTFGQGTKVEIK
Take B1: the EC50 in assay [1] was 0.0461 µg/mL.

B2: sd1.151 (antibody, V domains shown)
VH: EVQLVESGGGLVKPGGSLRLSCAVSGFTFSNAWMTWVRQAPGKGLEWVGRIKTKPEGGTTDYATPVKGRFTISRDDSIDTLYLQMNSLKTEDTAVYYCSTFSSPDHWGQGTLVTVSS
VL: DIVMTQSPDSLAVSLGERATINCKSSQSVFHSSNNKNYLIWYQHKPGQPPKLLISWASTRESGVPDRFSGSGSGTDFTLTISSLQAEDVAVYYCHQYYSTPFTFGPGTKVDIK
Take B2: the EC50 was 0.0663 µg/mL in assay [2], 0.0183 µg/mL in assay [1] and 0.0258 µg/mL in assay [3].

B3: sd1.040 (antibody, V domains shown)
VH: QVQLVQSGAEVKKPGASVKVSCKASGYTFTSFYIHWVRQAPGQGLEWMGIIDPSGGSTSYPQKFQGRVTMTRDTSTSTVYMDLSSLRSEDTAVYYCTRDGSAGDNSWFDPWGQGTLVTVSS
VL: DIVMTQSPDSLAVSLGERATINCKSSRNVLYSSNNKNYLAWYQQKPGQPPKLLIYWASARESGVPDRFSGSGSGTDFTLTISSLQAEDVAVYYCQQYYNTPYTFGQGTKLEIK
On to B3, for which the half-maximal effective concentration (EC50) in assay [2] was 0.0487 µg/mL; in assay [1] it was 0.0384 µg/mL; in assay [3], 0.021 µg/mL.

B4: sd1.108 (antibody, V domains shown)
VH: QVQLVQSGAEVKKPGASVKVSCKASGYTFTSYYIHWVRQTPGQGLEWMGIINPRGGSTSYPQKFQGRVSMTRDTSTSTVFMELSSLRSDDTAVYYCAREHREDTAMDNQPSDSWGQGTLVTVSS
VL: DIVMTQSPDSLSVSLGERATINCKSSRSVFYSSNNKSYLAWYQQKPGQPPKLLIYWASTRESGVRDRFSGSGSGTDFTLTISSLQAEDVAVYYCQQYYNTPYTFGQGTKLEIK
With B4, the EC50 in assay [2] came to 0.0459 µg/mL; in assay [1], 0.0173 µg/mL; in assay [3], 0.0258 µg/mL.

B5: sd1.150 (antibody, V domains shown)
V domain 1: EVQLVESGGGVVQPGRSLRLSCAASGFTFSSHGMHWVRQAPGRGLEWVAVISFDGRNKFYVDSVKGRFTISRDNSKNTLYLHMNSLRAADTAVYYCAKDHDPDGSGSYFSNWFDAWGQGTLVTVSS
V domain 2: SYELTQPPSVSVSPGQTASITCSGDKLGDKYAYWYRQKPGQSPVVVIYQDNKRPSGIPERFSGSNSGNTATLTISGTQAMDEADYYCQAWDTYSGVFGTGTQVTVL
B5: the EC50 in assay [2] amounted to 0.256 µg/mL; in assay [1], 0.732 µg/mL; in assay [3] it was 1.24 µg/mL.

B6: sd1.033 (antibody, V domains shown)
VH: QVQLVQSGAEVKKPGSSVKVSCKASGGVYSTYAVSWVRQAPGQGLEWIGGIIPMFGTANYAQNFQGRVTITADESTRTAYMEVSSLRSEDTAVYYCASPSAPTYYYDSSRYYSFDYWGQGTLVTVSS
VL: EIVLTQSPGTLSLSPGERATLSCRASQSVSSNFLAWFQQKPGQPPRLLIYGASSRATGIPDRFSGSGSGTDFTLTISRLVPEDFAVYFCQQYGSSRYSFGQGTKLEIK
Turning to B6, the figures for the EC50 in assay [1] and in assay [3] were 0.32 µg/mL and 0.654 µg/mL, respectively.

B7: sd1.103 (antibody, V domains shown)
VH: QVQLVQSGAEVKKPGSSMKVSCKASGGTLNNYAIIWVRQAPGQGLEWMGGIIPMFGAANYAQNFQGRVTITADESTRTAYLELSSLRSEDTAMYYCARVVIPYLGAHYYHYGVDVWGQGTTVTVSS
VL: EIVLTQSPGTLSLSPGERATLSCRASQSVTSNYLAWYQQKPGQAPRLLIYGASSRAAGIPDRFNGSGSGTDFTLTISRLEPEDFAVYYCQQYGSSRYTFGQGTKLEIK
With B7, the EC50 is 1.65 µg/mL in assay [2], 2.83 µg/mL in assay [1] and 8.28 µg/mL in assay [3].

B8: rbd.031 (antibody, V domains shown)
VH: EVQLVESGGGVVQPGRSLRLSCAASGFTFKTYGMHWVRQAPGKGLEWVAVISYEGSNEYYAESVKGRFTISRDNSKNTLYLHMNSLRAEDTAVYYCAKGEYYYHSSTYYYLDYWGRGTLVTVSS
VL: DIQMTQSPSTLSASVGDRVTITCRASQSISSWLAWYQQKPGKAPKVLIYDASSLQSGVPLRFSGSGSGTEFTLTISSLQPDDFATYYCQQYDTYWTFGQGTKVEIK
As for B8, the EC50 in assay [2] was 0.0486 µg/mL; in assay [1] it was 0.0309 µg/mL; in assay [3], 0.0252 µg/mL.

B9: sd1.129 (antibody, V domains shown)
VH: QVQLVQSGAEVKRPGSSVKVSCKASGGAFSNYAISWVRQAPGQGLEWMGGIIPIFGTTNYAQRFQGRVTISADESTGTAYMELSSLRFADTAIYYCARADAYSGSYYPSANWFDPWGQGTLVTVSS
VL: EIVLTQSPATLSLSPGERATLSCRASQSVSNYLAWYQQKPGQAPRLLIYDASNRATGIPARFSGSGSGTDFTLTISSLEPEDFAVYYCQQRQNWPPGWTFGQGTKVEIK
As to B9, the EC50 in assay [2] worked out at 5.1 µg/mL; in assay [1], 2.79 µg/mL; in assay [3], 2 µg/mL.

B10: sd1.039 (antibody, V domains shown)
VH: EVQLVQSGAEVKKPGESLKISCKASGYSFPTYWIGWVRQMPGKGLEWMGIIYPGDSDTRYSPSFQGQVTISADKSISTAYLQWSSLKASDTAIYYCARYGDSHIDSWGQGTLVTVSS
VL: QSVLTQPRSASASLGASVTLNCTLSSGYSKYKVEWYQQRPGKGPRFLMRVGAGGIVGSKGDGIPDRFSVLGSGLNRYLIIKNIQQEDESDYHCGADHGSGSNFAYVVFGGGTKLTVL
As to B10, the EC50 was 0.0464 µg/mL in assay [2], 0.0431 µg/mL in assay [1] and 0.0245 µg/mL in assay [3].

B11: sd1.127 (antibody, V domains shown)
VH: EVQLVESGGALVKPGGSLTLSCVASGFTFSHAWMTWVRQAPGKGLEWVGRIKTKTEGGTIDYAAPLRGRFTISRDDSKNTLYLRMNSLKIEDTAKYYCTTHSSPDYWGQGTLVTVSS
VL: DIQMTQSPSSLSASIGDRVTITCRASQGIGNSLLWYQQKRGKVPKLLIYAASTLQSGVPSRFSGSGSGTDFTLTISSLQPEDVATYYCQRYNSAPLTFGGGTKVEIK
For B11, the EC50 is 0.0195 µg/mL in assay [2], 0.00741 µg/mL in assay [1] and 0.0112 µg/mL in assay [3].

B12: sd1.100 (antibody, V domains shown)
VH: QVQLQESGPGLVKPSQTLSLTCSVSGDSITSGNYYWSWIRQHPGKGLEWIGNIFHTGNTYYNPSLKSRVTISIDTSKNQFSLKLSSVTAADTALYYCARDHKRLEGDWFDPWGQGSLVTVSS
VL: QSVLTQPPSASGTPGQRVTISCSGSSSNIGSNTVNWYLQLPGTAPKLLIYSNNLRPSGVPDRFSGSKSGTSASLAISGLQSGDEADYFCAAFDDSLSGPVFGGGTKLTVL
As for B12, the figures for the EC50 in assay [2], in assay [1] and in assay [3] were 0.187 µg/mL, 0.134 µg/mL and 0.15 µg/mL, respectively.

B13: sd1.102 (antibody, V domains shown)
VH: QVQLVQSGAEVKKPGSSVKVSCKASGGTFSSYAISWVRQAPGQGLEWMGGIIPLYGTANYAQKFQGRVTITADESTSTTYMELSSLTSEDTAVYYCVRFRGGDYYYYYGMDVWGQGTTVTVSS
VL: EIVMTQSPATLSVSPGESATLSCRASQTVSTNLAWYQQKPGQAPRLLIFGASTRATGIPARFSGSGSGTEFTLSISSLQSEDFAVYYCHQYNSRRTFGQGTKLEIK
In the case of B13, the EC50 in assay [2] came out at 2.93 µg/mL; in assay [1] it was 4.91 µg/mL.

B14: rbd.141 (antibody, V domains shown)
VH: EVQLVESGGGVVQPGRSLRLSCAASGFTFSSYGMHWVRQAPGKGLEWVAVISYDGKIKYYADSVEGRFTISRDNSKNALYLQMNSLRAEDTAVYYCAKYGIVTSFGVVPPYDMDVWGQGTTVTVSS
VL: DVVMTQSPLSLPVTLGQPASISCRSSQSLVYSDGNTFLNWFQQRPGQSPRRLIYKVSDRDSGVPDRFSGSGSGTDFTLKISRVEAEDVGVYYCMQGTNWPPTFGQGTKVEIK
Turning to B14, the EC50 came out at 0.0153 µg/mL in assay [2] and 0.0197 µg/mL in assay [1].

B15: rbd.038 (antibody, V domains shown)
VH: QVQLVQSGAEVKKPGASVKVSCKASGYTFSGYYMHWVRQAPGQGLEWVGWISPTSGGTKYAQKFQGRVTMTRDTSITTVYMELNRLRSDDTAVYYCAREPFPYCTSDICHSNYFYYYAMDVWGQGTTVTVSS
VL: QSALTQPPSASGSPGQSVTISCTGSSSDLGDHNYVSWYQQHPGKAPKVMIYEVSKRPSGVPDRFSGSKSGNTASLTVSGLQAEDEADYYCSSYAGSLYVFGTGTKVTVL
Take B15: the EC50 was determined as 0.124 µg/mL in assay [2] and 0.154 µg/mL in assay [1].

B16: sd1.034 (antibody, V domains shown)
VH: EVQLVESGGGVVQPGRSLRLSCAASGFSFSNYGMHWVRQAPGKGLEWVAVISYDGSHKSFADSVKGRFTISRDNSKNTLNLQMNSLRREDTAVYYCATDQGGSLGYWGQGTLVTVSS
VL: QSALTQPASVSGSPGQSITISCTGTSGDVGGYNYVSWYQHHPGKAPKLMIYDVSNRPSGVSNRFSGSKSGNTASLTISGLQAEDEADYYCSSYTSTSTSWVFGGGTKLTVL
For B16, the EC50 in assay [2] is 0.0359 µg/mL; in assay [1], 0.0359 µg/mL; in assay [3], 0.0225 µg/mL.

B17: rbd.046 (antibody, V domains shown)
VH: EVQLVESGGGVVQPGRSLRLSCAASGFTFSHYGMHWVRQAPGKGLEWVAVISYDGSNKYYADSVKGRFTISRDNSKSTLYLQMNSLRAEDTAVYYCAKGEWYYDIFTGYYPYWGQGTLVTVSS
VL: not shown
Turning to B17, the results for the half-maximal effective concentration (EC50) in assay [2], in assay [1] and in assay [3] were 0.0661 µg/mL, 0.0874 µg/mL and 0.314 µg/mL, respectively.

B18: sd1.132 (antibody, V domains shown)
VH: QVQLVQSGTEVKKPGSSVKVSCKASGGTFSSYAISWVRQAPGQGLEWMGGIIPMFGAPNYAQKVQGRVTITADESTSTAYMELSSLRSEDTAVYYCARMEYSNSPGRGGYYFYSNGMDVWGQGTTVTVSS
VL: EIVLTQSPATLSLSPGERATLSCRASQSVSTYLAWLQQKPGQAPRLLMYDASNRASGIPARFSGSGSGTEFTLTISSLEPEDFAVYYCQQRTYWPLTFGGGTKVEIK
With B18, the EC50 in assay [1] was 3.75 µg/mL.

B19: rbd.045 (antibody, V domains shown)
VH: QVQLQESGPGLVKPSETLSLTCTVSGGAFRSFFWTWIRQPPGKGLEWIGNIYYSGSTNYNPSLKSRVTISQDMSENQFSLKLSSVTAADTAVYYCARSQWLRGNFDHWGQGILVTVSS
VL: NFMLTQPHSVSESPGKTVTISCTATSGYIASNYVQWYQQRPGSAPTTVIYEDNQRPSGVPDRFSGSIDSSSNSASLTISGLKPEDEADYYCQSFDTAYAVFGGGTQLTVL
With B19, the EC50 was found to be 0.22 µg/mL in assay [2] and 0.065 µg/mL in assay [1].
